## Potato spindle tuber viroid, loop 15: variant abundance in plants

Data from the supplement of Wu et al. 2024, doi:10.1371/journal.ppat.1012142.

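Three N. benthamiana plants were inoculated with the whole mutant pool. Samples came from the inoculated region at 5 days, the leaf margin at 10 and upper systemic leaves at 12.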

The pool varies loop 15 of the PSTVd intermediate strain in the pattern GGAAACCGNNNNNNC; wild type is GGAAACCGCUACUAC (upper and lower strand joined, each 5' to 3', the first 7 letters being the upper strand, closing pairs included).

Values are reads per thousand in the sample; higher means more abundant, 0 means not found.
Each site shows the three plants.
"Pool" is the share in the plasmid pool used as inoculum, on the same scale.
The inoculated region was read from the minus strand, the other sites from the plus strand.
IR is the inoculated region, LM the leaf margin, Sys the systemic leaves.
For reference, wild type rose from 33.9 per thousand in the pool to 202, 200, 159 (inoculated region), 724, 746, 710 (leaf margin) and 856, 883, 880 (systemic leaves).
The authors trace changes outside the varied positions to PCR and sequencing errors or to mutation in the plant; presence does not show that a variant is infectious alone.
Samples held 43,870 to 66,106 reads, so the smallest values rest on one or two reads.

GGAAACCGAAUGGGC (pool 0.208): IR 0.0328 / 0.145 / 0.171; LM 0.0162 / 0.0668 / 0.0200; Sys 0 / 0 / 0.
GGAAACCGCCACACC (pool 0.272): IR 0.0491 / 0.145 / 0.0762; LM 0 / 0.0223 / 0.0200; Sys 0 / 0 / 0.
GGAAACCGUAUUGUC (pool 0.160): IR 0.0655 / 0.0482 / 0.133; LM 0 / 0 / 0.0200; Sys 0 / 0 / 0.
GGAAACCGCCGCGAC (pool 0.128): IR 0.0983 / 0.112 / 0.171; LM 0 / 0.0445 / 0.0601; Sys 0 / 0 / 0.
GGAAACCGAGGGAAC (pool 0.240): IR 0.131 / 0.145 / 0.114; LM 0 / 0 / 0.0200; Sys 0 / 0 / 0.
GGAAACCGAGAAUCC (pool 0.288): IR 0.180 / 0.145 / 0.0762; LM 0 / 0 / 0; Sys 0 / 0 / 0.
GGAAACCGGAGAAGC (pool 0.272): IR 0.0655 / 0.0482 / 0.114; LM 0 / 0 / 0.0200; Sys 0 / 0 / 0.
GGAAACCGUGACUUC (pool 0.304): IR 0.311 / 0.562 / 0.362; LM 0.113 / 0.134 / 0.0801; Sys 0.0483 / 0.0605 / 0.
GGAAACCGUGCUCAC (pool 0.256): IR 0.164 / 0.129 / 0.114; LM 0.0162 / 0 / 0.0200; Sys 0.0483 / 0 / 0.
GGAAACCGUAUGAGC (pool 0.192): IR 0.0655 / 0.0643 / 0.0952; LM 0.0485 / 0 / 0.0200; Sys 0 / 0 / 0.
GGAAACCGUCGCAUC (pool 0.256): IR 0.164 / 0.129 / 0.171; LM 0.0323 / 0.0223 / 0.0200; Sys 0 / 0 / 0.
GGAAACCGUGCAGAC (pool 0.160): IR 0.0491 / 0.0321 / 0.0952; LM 0.0162 / 0 / 0.0200; Sys 0 / 0 / 0.
GGAAACCGCUUCGGC (pool 0.368): IR 0.0655 / 0.0964 / 0.0952; LM 0.0323 / 0 / 0.0200; Sys 0 / 0 / 0.
GGAAACCGUGACCCC (pool 0.0960): IR 0.147 / 0.0964 / 0.0381; LM 0.0162 / 0 / 0; Sys 0 / 0 / 0.
GGAAACCGAGUUUUC (pool 0.240): IR 0.0983 / 0.129 / 0.133; LM 0 / 0 / 0.0401; Sys 0.0161 / 0.0151 / 0.
GGAAACCGUGUCUUC (pool 0.224): IR 0.0164 / 0.0643 / 0.133; LM 0 / 0.0223 / 0.0200; Sys 0.0161 / 0 / 0.
GGAAACCGACUUCGC (pool 0.208): IR 0.0655 / 0.129 / 0.0571; LM 0 / 0 / 0.0200; Sys 0 / 0 / 0.
GGAAACCGCUUUGCC (pool 0.128): IR 0.115 / 0.0803 / 0.0190; LM 0.0162 / 0 / 0; Sys 0.0322 / 0 / 0.
GGAAACCGUCUUUAC (pool 0.160): IR 0.360 / 0.402 / 0.495; LM 0.129 / 0.0223 / 0.0200; Sys 0.0161 / 0.0908 / 0.0684.
GGAAACCGCACGCAC (pool 0.288): IR 0.0655 / 0.0803 / 0.114; LM 0 / 0 / 0; Sys 0 / 0 / 0.
GGAAACCGCACCUCC (pool 0.160): IR 0.164 / 0.0161 / 0.0952; LM 0 / 0.0223 / 0.0200; Sys 0.0161 / 0 / 0.
GGAAACCGAUGGCCC (pool 0.144): IR 0.115 / 0.0964 / 0.114; LM 0 / 0 / 0.0200; Sys 0 / 0 / 0.
GGAAACCGAAUGUGC (pool 0.272): IR 0.147 / 0.161 / 0.209; LM 0.0162 / 0 / 0.0200; Sys 0 / 0 / 0.
GGAAACCGCCUUGUC (pool 0.272): IR 0.0164 / 0.0964 / 0.0762; LM 0.0162 / 0 / 0; Sys 0 / 0 / 0.
GGAAACCGCCUGUGC (pool 0.256): IR 0.295 / 0.209 / 0.343; LM 0.0970 / 0.111 / 0.220; Sys 0.0805 / 0 / 0.
GGAAACCGGCCCCGC (pool 0.144): IR 0.164 / 0.0643 / 0.0381; LM 0.0162 / 0.0223 / 0.0401; Sys 0.0161 / 0 / 0.
GGAAACCGCCCGACC (pool 0.320): IR 0.0491 / 0.0964 / 0.152; LM 0.0162 / 0 / 0.0401; Sys 0 / 0 / 0.
GGAAACCGAAGCAAC (pool 0.224): IR 0.0655 / 0.0803 / 0.0952; LM 0.0162 / 0 / 0; Sys 0.0161 / 0 / 0.
GGAAACCGGGUUGUC (pool 0.208): IR 0.0655 / 0.0643 / 0.209; LM 0 / 0.0223 / 0.0401; Sys 0 / 0 / 0.
GGAAACCGUGUUGUC (pool 0.272): IR 0.0328 / 0.0964 / 0.0952; LM 0 / 0 / 0; Sys 0 / 0 / 0.
GGAAACCGAAUAGUC (pool 0.352): IR 0.0491 / 0.161 / 0.133; LM 0.0323 / 0 / 0.0200; Sys 0 / 0 / 0.
GGAAACCGUGCAGUC (pool 0.256): IR 0.115 / 0.0643 / 0.152; LM 0.0162 / 0.0223 / 0.0601; Sys 0 / 0 / 0.
GGAAACCGUGAACAC (pool 0.240): IR 0.311 / 0.289 / 0.381; LM 0.0647 / 0.0891 / 0.220; Sys 0.0161 / 0.0605 / 0.0912.
GGAAACCGGCUCGUC (pool 0.144): IR 0.0983 / 0.0643 / 0.114; LM 0 / 0.0223 / 0.0200; Sys 0 / 0 / 0.
GGAAACCGUCAGUAC (pool 0.224): IR 0.311 / 0.257 / 0.400; LM 0.129 / 0.111 / 0.0801; Sys 0.0322 / 0 / 0.
GGAAACCGGCGGGUC (pool 0.272): IR 0 / 0.0964 / 0.0571; LM 0 / 0.0223 / 0.0200; Sys 0 / 0 / 0.
GGAAACCGCGGUCAC (pool 0.160): IR 0.115 / 0.145 / 0.0952; LM 0 / 0 / 0.0200; Sys 0.0161 / 0 / 0.
GGAAACCGCACCGAC (pool 0.192): IR 0.164 / 0.129 / 0.114; LM 0 / 0 / 0; Sys 0.0161 / 0 / 0.

The first 5 entries again:

GGAAACCGAAUGGGC (pool 0.208): IR 0.0328 / 0.145 / 0.171; LM 0.0162 / 0.0668 / 0.0200; Sys 0 / 0 / 0.
GGAAACCGCCACACC (pool 0.272): IR 0.0491 / 0.145 / 0.0762; LM 0 / 0.0223 / 0.0200; Sys 0 / 0 / 0.
GGAAACCGUAUUGUC (pool 0.160): IR 0.0655 / 0.0482 / 0.133; LM 0 / 0 / 0.0200; Sys 0 / 0 / 0.
GGAAACCGCCGCGAC (pool 0.128): IR 0.0983 / 0.112 / 0.171; LM 0 / 0.0445 / 0.0601; Sys 0 / 0 / 0.
GGAAACCGAGGGAAC (pool 0.240): IR 0.131 / 0.145 / 0.114; LM 0 / 0 / 0.0200; Sys 0 / 0 / 0.